Results published in publication PMC9242477, “Type B and type A influenza polymerases have evolved distinct binding interfaces to recruit the RNA polymerase II CTD” (2022).

How the values were obtained:
[1] = target: G2-RPB1ΔCTD (CTD repeats 4 to 51 deleted); assay: split-gaussia luciferase complementation assay; conditions: transient transfection in HEK-293T cells; parent: est. 8.0; read off a plot
[2] = target: G2-CTD (wild-type full-length CTD of RPB1 fused to G2 and the SV40 NLS); assay: split-gaussia luciferase complementation assay (in vivo CTD binding); conditions: parent: est. 100; read off a plot

Which response [1] does the source give for “FluPolB (B/Memphis/13/2003) wt: PB2, PB1 and PA-G1 (from UniProt Q5V8Z9;Q5V8Y6;Q5V8X3) PA:K450A” here?
Its response is 7.6 NLR.

What about the percent of parent [2] of the same substance?
Its percent of parent is 98 % of wt.

How did the response [1] turn out when “FluPolB (B/Memphis/13/2003) wt: PB2, PB1 and PA-G1 (from UniProt Q5V8Z9;Q5V8Y6;Q5V8X3) PA:K631A; PA:R634A” was run?
The response was 8 NLR.

“FluPolB (B/Memphis/13/2003) wt: PB2, PB1 and PA-G1 (from UniProt Q5V8Z9;Q5V8Y6;Q5V8X3) PA:R608A” was tested. Which percent of parent [2] did it give?
The percent of parent was 27 % of wt.

What does the source list for “FluPolB (B/Memphis/13/2003) wt: PB2, PB1 and PA-G1 (from UniProt Q5V8Z9;Q5V8Y6;Q5V8X3) PB2:K556A”?
response [1]: 8.7 NLR; percent of parent [2]: 52 % of wt

Which percent of parent [2] does the source give for “FluPolB (B/Memphis/13/2003) wt: PB2, PB1 and PA-G1 (from UniProt Q5V8Z9;Q5V8Y6;Q5V8X3) PB2:W553A” here?
Its percent of parent is 140 % of wt.

“FluPolB (B/Memphis/13/2003) wt: PB2, PB1 and PA-G1 (from UniProt Q5V8Z9;Q5V8Y6;Q5V8X3) PB2:W553A; PB2:K556A” was tested. Which percent of parent [2] did it give?
The percent of parent was 98 % of wt.
